From patent US20060134092

Target: sheep prion protein (UniProt P23907)

enzyme composition B for comparison (containing keratinase derived from Bacillus licheniformis PWD-1)
digestion of pathogenic prion protein in 1% brain homogenate, Western blot: the pathogenic prion protein was not digested at any concentration
